Data source: PubChem BioAssay AID624099 (ICCB-Longwood, 2012)
The whole screen tested about 21,000 reagents; shown is a random part of them. Over the whole deposit, 497 (2.4%) are marked active. 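Higher z means weaker E2 silencing; only reporter increases were scored, and knock-downs that hurt cell survival may mask genuine repressor factors.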 Entries without a mark were called inactive.

- Test: 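Host factors E2 relies on to silence an HPV18 LCR reporter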 (primary screen)
- Cell system: human C33A cervical carcinoma cells (HPV-negative) stably expressing BPV1 E2 and an HPV18 LCR luciferase reporter
- Reagent: siRNA pool against human genes, 40 nM
- Time to read-out: 72 h
- Measured: 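HPV18 LCR reporter light per well, converted to plate-wise z-scores that exclude control wells, and averaged over triplicate plates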
- Direction: mean z-score and z-score: higher = stronger reporter signal, weaker E2 silencing
- Call rule: 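Mean z ≥ 2 together with z ≥ 2 in two or more of the three replicates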

COQ8A (GeneID 56997)
- mean z-score: 2.62 (active)
- z-score, replicate A: 2.74
- z-score, replicate B: 2.64
- z-score, replicate C: 2.47

IL3RA (GeneID 3563)
- mean z-score: 0.19
- z-score, replicate A: 0.3
- z-score, replicate B: 0.07
- z-score, replicate C: 0.19

CASC2 (GeneID 255082)
- mean z-score: -0.51
- z-score, replicate A: -0.23
- z-score, replicate B: -0.84
- z-score, replicate C: -0.47

ITGAV (GeneID 3685)
- mean z-score: -1.59
- z-score, replicate A: -1.35
- z-score, replicate B: -1.81
- z-score, replicate C: -1.61

C1QL1 (GeneID 10882)
- mean z-score: -0.39
- z-score, replicate A: -0.36
- z-score, replicate B: -0.33
- z-score, replicate C: -0.49

PDE12 (GeneID 201626)
- mean z-score: 0.38
- z-score, replicate A: 0.45
- z-score, replicate B: 0.34
- z-score, replicate C: 0.36

ARAP3 (GeneID 64411)
- mean z-score: 0.72
- z-score, replicate A: 0.94
- z-score, replicate B: 0.38
- z-score, replicate C: 0.85

YME1L1 (GeneID 10730)
- mean z-score: -0.2
- z-score, replicate A: -0.29
- z-score, replicate B: -0.22
- z-score, replicate C: -0.1

RIOK1 (GeneID 83732)
- mean z-score: 1.22
- z-score, replicate A: 1.03
- z-score, replicate B: 1.03
- z-score, replicate C: 1.59

LOC343384 (retired record) (GeneID 343384)
- mean z-score: -0.85
- z-score, replicate A: -0.15
- z-score, replicate B: -1.45
- z-score, replicate C: -0.94

PACRGL (GeneID 133015)
- mean z-score: 0.68
- z-score, replicate A: 0.61
- z-score, replicate B: 0.65
- z-score, replicate C: 0.79

GRM7 (GeneID 2917)
- mean z-score: -0.6
- z-score, replicate A: -0.48
- z-score, replicate B: -0.42
- z-score, replicate C: -0.88

Laid out differently: entries from further up
gene symbol,mean z-score,"z-score, replicate A","z-score, replicate B","z-score, replicate C"
ARAP3 (GeneID 64411),0.72,0.94,0.38,0.85
YME1L1 (GeneID 10730),-0.2,-0.29,-0.22,-0.1
